Compound potency records, mixed from different reports. Data source: NIAID ChemDB in PubChem.

Common to all: whole-cell or culture tests; species: Mycobacterium tuberculosis

Neighbouring rows are from separate reports. MIC bound: limit read from a one-dose screen. Inhibition is in % at the dose shown (toxicity tests: loss of growth or viability). ECn is the concentration giving n% inhibition of infection, replication or growth. Blank or dashed fields: not listed here. A number after MIC or MFC names an inhibition level or a share of isolates.

structure	changes	read by	strain	conditions	cells	dose	read-out	result
C[C@@H](O)[C@H]1C(=O)N2C(C(=O)O)=C(SCCN=CN)C[C@H]12	-	-	Isolate 4	-	-	-	MIC	4 µg/mL
O=C1CC(=S)N=CN1	-	BACTEC	H37Rv	-	-	-	MIC bound	>12.5 µg/mL
NNC(=O)c1ccncc1	Multidrug-resistant	resazurin	FJ05120	-	-	-	MIC	4 µg/mL
CCOc1ccc2c(N/N=C/c3c(OC)ccc4ccccc34)cc(C)nc2c1	-	-	H37Rv	-	VERO	12.5 µg/mL	inhibition	100%
CC1(n2[nH]c(=O)n(-c3ccccc3)c2=O)Cn2c(=O)n(-c3ccccc3)c(=O)n2-c2ccccc21	-	resazurin	H37Rv	-	-	-	MIC bound	>6.25 µg/mL
Fc1ccc2oc(=S)n(-c3ccc(Cl)cc3)c(=S)c2c1	-	-	My 331/88	14 d	-	-	MIC	2 µM
NNC(=O)c1ccncc1	-	-	ATCC35801	-	-	-	MIC	0.06 µg/mL
O=C1c2cc(Br)ccc2OP(=O)(c2ccccc2)N1c1ccc(C(F)(F)F)cc1	-	-	9449/2007	14 d	-	-	MIC	1 µM
O=C1/C=C2/C=CC=CN2C(=O)/C=C2/C=CC=CN12	-	BACTEC	H37Rv	-	-	-	MIC	≥12.5 µg/mL
NC(=O)c1cnc(Cl)cn1	-	-	ATCC 27294	-	-	-	MIC	16 µg/mL
O=c1c2nccnc2nc2n1CCS2	-	-	H37Rv	-	-	6.25 µg/mL	inhibition	5%
Cc1ccc2oc(=S)n(-c3ccc(C(F)(F)F)cc3)c(=S)c2c1	-	-	My 331/88	21 d	-	-	MIC	8 µM
NNC(=O)c1cc2ccccc2[nH]1	-	BACTEC	H37Rv	-	-	-	MIC	≥12.5 µg/mL
CC1(C)[C@H](C(=O)O)N2C(=O)C[C@H]2S1(=O)=O	-	-	H37Rv	-	-	-	MIC	>16 µg/mL
O=c1oc2ccc(F)cc2c(=S)n1-c1ccc(Br)cc1	-	-	My 331/88	21 d	-	-	MIC	2 µM
O=C(Nc1ccc(Cl)c(Cl)c1)c1cc(Cl)ccc1OP(=O)(c1ccccc1)c1ccccc1	-	-	My 331/88	7 d	-	-	MIC	2 µM
Cc1[nH]n(CCO)c(=O)c1N=Nc1ccc(-c2n[nH]c(=S)o2)cc1	-	-	H37Rv	-	-	-	MIC	>12.5 µg/mL
COc1ccc2oc(=O)n(-c3ccc(F)cc3)c(=S)c2c1	-	-	My 331/88	21 d	-	-	MIC	16 µM
CN1CCN(c2cc3c(=O)c(C(=O)O)c4n(c3cc2[N+](=O)[O-])CS4)CC1c1ccccc1	-	agar	H37Rv	-	-	-	MIC	3.45 µM
O=C1C2Nc3ccccc3N=C2OC1c1ccc(Cl)c(Cl)c1	-	BACTEC	H37Rv	-	-	12.5 µg/mL	inhibition	-19%
CCCCOc1ccc2nccc(N/N=C/c3ccc(OC)c4ccccc34)c2c1	-	-	H37Rv	-	VERO	12.5 µg/mL	inhibition	100%
NC(=O)c1cnccn1	-	-	ATCC 35828	-	-	-	MIC	>300 µg/mL
CC(=O)OCC1=C(C(=O)O)N2C(=O)[C@@H](NC(=O)Cc3cccs3)[C@H]2SC1	-	-	Isolate 3	-	-	-	MIC	>16 µg/mL
Clc1ccc(CSc2nc3ccccc3[nH]2)cc1	-	-	My 331/88	-	-	-	MIC	>32 µM
CC1COc2c(N3CCN(C)CC3)c(F)cc3c(=O)c(C(=O)O)cn1c23	-	-	H37RV (DRUG-SUS)	-	-	-	MBC	4 µg/mL
COC(=O)C(Cc1c[nH]c2ccccc12)NC(=O)c1ccccc1NC(=O)OCc1ccccc1	-	BACTEC	H37Rv	-	-	-	MIC bound	>12.5 µg/mL
O=C(O)[C@H]1/C(=C/CO)O[C@@H]2CC(=O)N21	-	-	Isolate 3	-	-	-	MIC	>16 µg/mL
Cc1ccc2oc(=S)n(-c3ccc(Cl)c(Cl)c3)c(=S)c2c1	-	-	My 331/88	14 d	-	-	MIC	0.5 µM
O=c1oc2ccc(Cl)cc2c(=O)n1-c1ccc(F)cc1	-	-	CNCTC MY331/88	-	-	-	MIC	8 µM
O=C1c2ccccc2-c2nc3ccccc3nc21	-	resazurin	H37Rv	-	-	6.25 µg/mL	inhibition	96%
CC(=O)Oc1ccc([C@H]2Oc3cc(OC(C)=O)cc(OC(C)=O)c3C(=O)[C@@H]2c2c(OC(C)=O)cc(OC(C)=O)c3c(=O)cc(-c4ccc(OC(C)=O)c(OC(C)=O)c4)oc23)cc1	-	-	H37Rv	-	-	12.5 µg/mL	inhibition	0%
CCOc1ccc2c(N/N=C/c3c(OC)ccc4ccccc34)ccnc2c1	-	-	H37Rv	-	VERO	12.5 µg/mL	inhibition	100%
O=C(O)c1c2n(c3cc(F)c(N4CCSCC4)cc3c1=O)CS2	-	agar	H37Rv	-	-	-	MIC	4.43 µM
O=c1c2ccccc2[se]n1-c1cccnc1	-	-	H37Rv	-	-	-	MIC	12.5 µg/mL
COc1ccc(/C=C/C(=O)c2c(O)cccc2OC)cc1	-	-	H37Rv	-	-	-	EC50	<12.5 µg/mL
NNC(=O)C1C2C=CC(C2)C1C(=O)NN	-	BACTEC	H37Rv	-	-	-	MIC	≥12.5 µg/mL
Cc1cnc(C(=O)NCN2CCN(C)CC2)cn1	-	-	PZA-resistant	-	-	-	MIC	100 µg/mL
Cc1ccc(S(=O)(=O)NNC(=O)c2ccc[nH]2)cc1	-	BACTEC	H37Rv	-	-	-	MIC bound	>12.5 µg/mL
Fc1ccccc1CSc1nc2ccccc2[nH]1	-	-	My 331/88	-	-	-	MIC	>125 µM
COc1ccc2c(=O)n(-c3cccc(F)c3)c(=O)oc2c1	-	-	CNCTC MY331/88	-	-	-	MIC	8 µM
CCCCCSc1nc2ccccc2[nH]1	-	-	My 331/88	-	-	-	MIC	125 µM
CC(=O)Oc1ccc([C@@H]2CC(=O)c3c(cc(OC(C)=O)c(-c4c(OC(C)=O)cc5c(c4OC(C)=O)C(=O)C[C@@H](c4ccc(OC(C)=O)cc4)O5)c3OC(C)=O)O2)cc1	-	-	-	-	-	-	EC50	>12.5 µg/mL
COc1ccc2c(c1)[n+]([O-])c(/C(C)=N/NC(N)=S)c(C)[n+]2[O-]	-	BACTEC	H37Rv	-	-	12.5 µg/mL	inhibition	87%
O=c1oc2ccc(F)cc2c(=O)n1-c1ccc(Br)cc1	-	-	CNCTC MY331/88	-	-	-	MIC	4 µM
Cc1cc(N/N=C/c2ccccc2)c2cc(C3CCCCC3)ccc2n1	-	-	H37Rv	-	VERO	-	MIC	6.25 µg/mL
CSC(=S)N/N=C(\C)c1ccc(S(=O)(=O)N(C)c2ccccc2)cc1	-	resazurin	H37Rv	-	-	6.25 µg/mL	inhibition	2%
NNc1ccnc2cc(Cl)cc(Cl)c12	-	-	H37Rv	-	VERO	12.5 µg/mL	inhibition	82%
COc1cc2c(cc1OC)CN(c1cc3c(=O)c(C(=O)O)c4n(c3cc1[N+](=O)[O-])CS4)CC2	MDR-TB	agar	H37Rv	-	-	-	MIC	0.83 µM
C=CCn1c(-c2ccc(N=Nc3c(C)[nH][nH]c3=O)cc2)n[nH]c1=S	-	-	H37Rv	-	-	-	EC50	>12.5 µg/mL
C=CCSc1nc2ccccc2[nH]1	-	-	My 331/88	-	-	-	MIC	1000 µM
CC(C)(C)OC(=O)NC1C2CN(c3cc4c(=O)c(C(=O)O)c5n(c4cc3[N+](=O)[O-])CS5)CC21	MDR-TB	agar	H37Rv	-	-	-	MIC	0.19 µM
O=[N+]([O-])[O][Ga]([O][N+](=O)[O-])[O][N+](=O)[O-]	-	-	Erdman	-	-	500 µM	inhibition	65%
CO[C@H]1/C=C/O[C@@]2(C)Oc3c(C)c(O)c4c(O)c(c5c(c4c3C2=O)NC2(CCN(CC(C)C)CC2)N=5)=NC(=O)/C(C)=C\C=C\[C@H](C)[C@H](O)[C@@H](C)[C@@H](O)[C@@H](C)[C@H](OC(C)=O)[C@@H]1C	-	-	6 strains (rifampicin-resistant)	-	-	-	MIC50	12.5 µg/mL
COc1ccc(C(=O)/C=C/c2ccco2)c(O)c1	-	-	-	-	-	-	EC50	>12.5 µg/mL
COc1ccc2cc1-c1cc(cc(Br)c1O)C[C@H]1c3cc4c(cc3CCN1C)Oc1c(OC)cc3c(c1O4)[C@H](C2)N(C)CC3	-	resazurin	H37Rv-[AS-R ATCC 35821	-	-	-	MIC	1.5 µg/mL
CC(=O)n1nc(-c2ccc(N=Nc3c(C)[nH]n(-c4ccccc4)c3=O)cc2)n(-c2ccccc2)c1=S	-	-	H37Rv	-	-	-	EC50	~12.5 µg/mL
CCCCCCCCCCCCCCCCSc1nc2ccccc2[nH]1	-	-	My 331/88	-	-	-	MIC	>250 µM
N#CCCN(CCC#N)c1ccc(/C=C2/N=C(c3cc([N+](=O)[O-])ccc3Cl)OC2=O)cc1	-	BACTEC	H37Rv	-	-	12.5 µg/mL	inhibition	16%
COc1ccc(CC2C3=C(CCCC3)CCN2c2cc3c(=O)c(C(=O)O)c4n(c3cc2[N+](=O)[O-])CS4)cc1	-	agar	H37Rv	-	-	-	MIC	5.87 µM
Cc1c2cnccc2c(C)c2c1c1ccccc1n2CCCCCCNCc1ccccc1	-	resazurin	H37Rv	-	-	6.25 µg/mL	inhibition	98%
COc1cc2c(cc1OC)CN(c1cc3c(=O)c(C(=O)O)c4n(c3cc1F)CS4)CC2	MDR-TB	agar	H37Rv	-	-	-	MIC	7.07 µM
Fc1ccc2oc(=S)n(-c3cccc(Cl)c3)c(=S)c2c1	-	-	My 331/88	21 d	-	-	MIC	4 µM
CO[C@H]1/C=C/O[C@@]2(C)Oc3c(C)c(O)c4c(O)c(c(/C=N/N5CCN(C6CCCC6)CC5)c(O)c4c3C2=O)NC(=O)/C(C)=C\C=C\[C@H](C)[C@H](O)[C@@H](C)[C@@H](O)[C@@H](C)[C@H](OC(C)=O)[C@@H]1C	-	-	13684	-	-	-	MIC	0.02 µg/mL
Fc1ccc(NC(=S)SCc2ccc(Cl)c(Cl)c2)cc1F	-	BACTEC	H37Rv	-	-	-	MIC	64 µg/mL
CC1COc2c(N3CCN(C)CC3)c(F)cc3c(=O)c(C(=O)O)cn1c23	-	agar	08-211	-	-	-	MIC	0.125 µg/mL
N#Cc1nc(CC(=O)c2ccc(Cl)cc2Cl)c(CC(=O)c2ccc(Cl)cc2Cl)nc1C#N	-	BACTEC	H37Rv	-	-	12.5 µg/mL	inhibition	60%
O=C(Nc1ccc(C(F)(F)F)cc1)c1cc(Cl)ccc1OP(=O)(c1ccccc1)c1ccccc1	-	-	My 331/88	7 d	-	-	MIC	1 µM
NC(=S)c1ccc(CSc2nc3ccccc3[nH]2)cc1	-	-	My 331/88	-	-	-	MIC	32 µM
O=C(O)c1c2n(c3cc([N+](=O)[O-])c(N4CCC(O)(c5ccc(Cl)cc5)CC4)cc3c1=O)CS2	MDR-TB	agar	H37Rv	-	-	-	MIC	1.59 µM
COc1ccc2nc(C)cc(N/N=C/c3ccc(OC)c4ccccc34)c2c1	-	-	H37Rv	-	VERO	12.5 µg/mL	inhibition	100%
COc1ccc2c(c1)[n+]([O-])c(S(=O)(=O)c1ccc(C)cc1)c(N)[n+]2[O-]	-	-	KM-R	-	-	-	MIC	>12.5 µg/mL
O=C(Nc1ccccc1)c1ccccc1OP(=O)(OCc1ccccc1)OCc1ccccc1	-	-	My 331/88	14 d	-	-	MIC	250 µM
CCOc1ccc2c(N/N=C/c3ccc(OC)c4ccccc34)cc(C)nc2c1	-	-	H37Rv	-	VERO	12.5 µg/mL	inhibition	100%
COc1ccc2cc1-c1cc(ccc1O)C[C@@H]1NCCc3cc4c(cc31)Oc1c(c(OC)cc3c1[C@H](C2)N(C)CC3)O4	-	resazurin	H37Rv	-	-	-	MIC	3.1 µg/mL
CCOC(=O)/C(N=Nc1ccc(-c2n[nH]c(=S)n2-c2ccccc2)cc1)=C(\C)O	-	-	H37Rv	-	-	12.5 µg/mL	inhibition	0%
Cc1cnc(C(=O)NCN2CCOCC2)cn1	-	-	PZA-susceptible	-	-	-	MIC	100 µg/mL
O=C(Nc1ccccc1)c1ccccc1OP(=O)(Oc1ccccc1)Oc1ccccc1	-	-	My 331/88	7 d	-	-	MIC	125 µM
O=c1oc2ccc(Br)cc2c(=S)n1-c1ccc(Cl)c(Cl)c1	-	-	My 331/88	14 d	-	-	MIC	1 µM
N=Nc1c(OC(=O)Nc2ccccc2)[nH]c2ccccc12	-	BACTEC	H37Rv	-	-	12.5 µg/mL	inhibition	29%
Cc1ccc(-n2c(=O)oc3ccc([N+](=O)[O-])cc3c2=O)cc1	-	-	CNCTC MY331/88	-	-	-	MIC	62 µM
CCCCc1ccc2nc(C)cc(N/N=C/c3ccc4c(c3)OCO4)c2c1	-	-	H37Rv	-	VERO	12.5 µg/mL	inhibition	100%
Cc1[nH]n(CCO)c(=O)c1N=Nc1ccc(-c2n[nH]c(=O)n2-c2ccccc2)cc1	-	-	H37Rv	-	-	12.5 µg/mL	inhibition	0%
CCOc1ccc(Nc2ccc(N=Nc3c(N)c(C)cc(N=Nc4ccc(-c5ccc(N=Nc6ccc(O)c(C(=O)O)c6)cc5)cc4)c3N)cc2S(=O)(=O)O)cc1	-	resazurin	H37Rv	-	-	-	MIC bound	>6.25 µg/mL
CCCN(CCC)CNC(=O)c1cnccn1	-	-	ATCC 27294	-	-	-	MIC	100 µg/mL
O=C1c2cc(Cl)ccc2OP(=O)(c2ccccc2)N1c1ccc(C(F)(F)F)cc1	-	-	Praha 4	21 d	-	-	MIC	1 µM